Data from publication PMC6742228.

Tests used:
[1] = target: A/Puerto Rico/8/1934 (H1) HA V444L (influenza A virus A/Puerto Rico/8/1934 (H1N1))
[2] = target: A/Puerto Rico/8/1934 (H1) HA K55E (influenza A virus A/Puerto Rico/8/1934 (H1N1))
[3] = target: A/Puerto Rico/8/1934 (H1) HA K55E.V444L (influenza A virus A/Puerto Rico/8/1934 (H1N1))

Substance | HA-pseudovirus neutralization titer (IC95), 293T cells [1] | Plaque reduction titer (IC50), replicating virus on MDCK cells [1] | HA-pseudovirus neutralization titer (IC95), 293T cells [2] | Plaque reduction titer (IC50), replicating virus on MDCK cells [2] | HA-pseudovirus neutralization titer (IC95), 293T cells [3] | Plaque reduction titer (IC50), replicating virus on MDCK cells [3]
MAb C179 (antibody) | 1.73 µg/mL | 68.8 µg/mL | 2.02 µg/mL | 25.7 µg/mL | 2.81 µg/mL | 91.2 µg/mL
MAb CR6261 (antibody) | 0.38 µg/mL |  | 0.43 µg/mL |  | 0.42 µg/mL | 
MAb FI6 (antibody) | 0.49 µg/mL | 7.1 µg/mL | 0.53 µg/mL | 2.4 µg/mL | 0.54 µg/mL | 5.9 µg/mL
